Values of other authors, collected in publication PMC8954747 (Viruses, 2022).

Amino acid sequences for entries named in this document (tags omitted). A change or cut given only in a name is not applied to a line headed by its entry. Residues count along the entry.
UniProt Q14160, 860-950 limits assumed: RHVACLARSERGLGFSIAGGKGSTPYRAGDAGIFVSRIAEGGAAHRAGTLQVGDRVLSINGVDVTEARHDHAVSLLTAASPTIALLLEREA
UniProt Q14160, 725-815 limits assumed: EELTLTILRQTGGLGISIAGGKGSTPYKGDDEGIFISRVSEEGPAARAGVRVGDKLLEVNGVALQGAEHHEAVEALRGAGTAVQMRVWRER
UniProt Q14160, 1002-1093 limits assumed: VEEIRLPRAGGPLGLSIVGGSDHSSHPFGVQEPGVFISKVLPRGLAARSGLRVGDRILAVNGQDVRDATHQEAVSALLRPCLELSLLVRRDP
UniProt Q14160, 725-818: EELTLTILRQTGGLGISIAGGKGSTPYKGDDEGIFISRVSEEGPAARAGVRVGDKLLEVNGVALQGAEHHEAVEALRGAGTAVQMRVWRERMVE
UniProt Q14155: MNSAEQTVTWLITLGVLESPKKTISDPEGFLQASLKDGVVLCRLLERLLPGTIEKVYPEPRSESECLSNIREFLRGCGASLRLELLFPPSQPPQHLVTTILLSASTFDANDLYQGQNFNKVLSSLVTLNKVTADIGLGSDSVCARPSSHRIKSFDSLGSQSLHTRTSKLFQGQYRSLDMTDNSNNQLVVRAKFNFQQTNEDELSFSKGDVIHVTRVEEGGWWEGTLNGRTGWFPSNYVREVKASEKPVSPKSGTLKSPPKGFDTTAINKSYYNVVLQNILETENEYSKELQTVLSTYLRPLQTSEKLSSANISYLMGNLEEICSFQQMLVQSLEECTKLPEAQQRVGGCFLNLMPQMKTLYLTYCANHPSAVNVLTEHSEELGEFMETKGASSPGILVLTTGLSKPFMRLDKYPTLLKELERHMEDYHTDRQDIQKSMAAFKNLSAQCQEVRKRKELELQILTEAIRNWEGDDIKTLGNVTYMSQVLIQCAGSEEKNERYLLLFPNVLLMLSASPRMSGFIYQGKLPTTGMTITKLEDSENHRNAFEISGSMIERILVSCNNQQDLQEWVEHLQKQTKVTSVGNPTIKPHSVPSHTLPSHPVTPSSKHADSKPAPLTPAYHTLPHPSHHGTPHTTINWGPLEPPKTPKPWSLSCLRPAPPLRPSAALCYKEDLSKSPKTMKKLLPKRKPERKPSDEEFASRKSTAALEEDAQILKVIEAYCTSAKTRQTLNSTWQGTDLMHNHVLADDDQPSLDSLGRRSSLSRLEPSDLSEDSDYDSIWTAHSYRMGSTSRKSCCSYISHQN

How the values were obtained:
[1] = target: human Scribble (SCRIB) PDZ2 domain (residues 860–950) (Homo sapiens, UniProt Q14160); settings: ITC, previously measured; read-out: affinity of SCRIB PDZ2 for β-PIX; cited from earlier work
[2] = target: human Scribble (SCRIB) PDZ1 domain (residues 725–815) (Homo sapiens, UniProt Q14160); settings: ITC, previously measured; read-out: affinity of SCRIB PDZ1 for β-PIX; cited from earlier work
[3] = target: SCRIB PDZ3 (residues 1002–1093) (Homo sapiens, UniProt Q14160); settings: ITC, previously measured; read-out: affinity of SCRIB PDZ3 for β-PIX; cited from earlier work
β-PIX PBM (Homo sapiens) = β-PIX PBM (Homo sapiens) (UniProt Q14155); settings: cited from earlier work

Row | Substance | Kd [1] | Kd [2] | Kd [3] | Kd (β-PIX PBM (Homo sapiens))
1 | PAWDETNL [β-PIX] | 67.8 ± 7.9 µM | 3.3 ± 0.3 µM | 14.7 ± 2.1 µM | –
2 | SCRIB PDZ1 (from UniProt Q14160) | – | – | – | 3.3 µM
